Source: the supplement of paper PMC10702517

Test: chemical recovery from spiked human plasma; higher = better extraction
Details: pooled human plasma

## O=[p+]1oc2ccccc2c2ccccc21 (stereo not drawn) [3,4,5,6-Dibenzo-1,2-oxaphosphane-2-oxide]
Extraction method: PES+SPE (3 d PDMS equilibration then HLB SPE)
  chemical recovery: 42.8 ± 2.5%
Extraction method: SPE only (HLB 96-well)
  chemical recovery: 42.2 ± 5.8%
Extraction method: solvent precipitation (ACN + hexane)
  chemical recovery: 66.5 ± 8.7%

± gives the standard deviation.
